± gives the standard deviation. Only a part is listed here, and it is no random draw.
Key:
Jurkat [1] = assay: mean cell size (FSC-A) relative to DMSO control (fraction of control); higher = larger cells; settings: concentration: 25 µM; 48 h
Summary of the method: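 Jurkat cells seeded at 600 cells/µl were incubated 1 h, then exposed for 48h to the Enzo Screen-Well FDA Approved Drug Library v2.0 at 25µM in 0.9% (v/v) final DMSO. Drugs that cut counts below 20% of controls were diluted 10-fold and retested, down to 25nM. Cell count and mean cell size (forward scatter area) were read on an Accuri C6 flow cytometer, relative to solvent-only controls. Plates held 6-12 controls; values are means of 3 biological replicates.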

Jurkat [2] = assay: cell count relative to DMSO control (fraction of control); higher = more cells (less growth inhibition); settings: concentration: 25 µM; 48 h

SMILES: [As+3].[As+3].[O-2].[O-2].[O-2] [Arsenic Trioxide]
- mean cell size (Jurkat [1]): 0.876 ± 0.013
- cell count (Jurkat [2]): 0.503 ± 0.072
